One sequence from PMC9698730 (Molecules, 2022) can be followed below.

The target in the data set is N FL (SARS-CoV-2 nucleoprotein, full length) (SARS-CoV-2 (initial Wuhan strain, wt)) (UniProt P0DTC9). The experiment in a line: DLS. As to conditions: recombinant protein; residues 1-419; protein details: His6; single-stranded DNA.

The exact form of at least one protein or probe is not confirmed. At least one verdict was read from the data and is not stated in words by the source.

With “ATATATATCTATGTCCATATATATATAAAACACAGCGTGTGTGTGTAA [48-mer DNA]”, the binding result is “binds”.
